According to publication PMC8653674, “Design, Synthesis, Docking Study and Biological Evaluation of 4-Hydroxy-2H-benzo[e][1,2]thiazine-3-carboxamide 1,1-dioxide Derivatives as Anti-HIV Agents” (Iranian Journal of Pharmaceutical Research : IJPR, 2021):

system: single-cycle replicable HIV NL4-3 virions in Hela cells; test: single cycle HIV-1 replication assay (inhibition of p24 expression, capture ELISA); assay type: cell-based; settings: Selectivity Index, CC50/EC50 ratio
Procedure: The anti-HIV-1 activity of target compounds was evaluated in a single cycle replication assay evaluated in our laboratory and reported previously. In this assay, the single-cycle replicable HIV NL4-3 virions (200 ng p24) were inoculated concurrently with compounds in different concentrations to the Hela cells. The inhibition rate (%) of p24 expression was measured by capture ELISA (Biomerieux, France) 72 hours after inoculation. Percentage inhibition of p24 expression in treated culture was calculated as inhibition rate of p24 (%). The XTT (sodium3-[1(phenylaminocarbonyl)-3,4-tetrazolium]-bis(4-methoxy-6-nitro)benzene sulfonic acid) proliferation assay was conducted to evaluate the cellular toxicity according to the kit instructions. The cytotoxic concentration that reduced the number of viable cells by 50% (CC50) was calculated after the determination of p24 load in the HIV-1 replication assay plates ([37]-[40]).
Fourteen 1,2-benzothiazine-3-carboxamide 1,1-dioxide derivatives containing different substituents at N-2 positions (12 and 13a-m) were synthesized and evaluated to inhibit the single-cycle HIV replication inhibition HeLa cell culture. Cytotoxicity of compounds was also tested in the same cell line to ensure the safety of compounds. Raltegravir was used as a positive control. Anti-HIV activity and cytotoxicity of compounds were expressed as EC50 and CC50, respectively. Selectivity Index (SI) was calculated using CC50/EC50 ratio.

Structure (SMILES) | SI
NC(=O)C1=C(O)c2ccccc2S(=O)(=O)N1 [Compound 12, 4-hydroxy-2H-benzo[e][1,2]thiazine-3-carboxamide 1,1-dioxide] | 9.0
Cc1ccccc1CN1C(C(N)=O)=C(O)c2ccccc2S1(=O)=O [Compound 13e, 4-Hydroxy-2-(2-methylbenzyl)-2H-benzo[e][1,2]thiazine-3-carboxamide 1,1-dioxide] | 11.8
CN1C(C(=O)Nc2ccccn2)=C(O)c2ccccc2S1(=O)=O [Piroxicam, piroxicam, reference compound] | 7.5
NC(=O)C1=C(O)c2ccccc2S(=O)(=O)N1Cc1ccc([N+](=O)[O-])cc1 [Compound 13m, 4-Hydroxy-2-(4-nitrobenzyl)-2H-benzo[e][1,2]thiazine-3-carboxamide 1,1-dioxide] | > 26 and 26
NC(=O)C1=C(O)c2ccccc2S(=O)(=O)N1Cc1cccc(F)c1 [Compound 13k, 2-(3-Fluorobenzyl)-4-hydroxy-2H-benzo[e][1,2]thiazine-3-carboxamide 1,1-dioxide] | 9.2
COc1cccc(CN2C(C(N)=O)=C(O)c3ccccc3S2(=O)=O)c1 [Compound 13f, 4-Hydroxy-2-(3-methoxybenzyl)-2H-benzo[e][1,2]thiazine-3-carboxamide 1,1-dioxide] | 12.8
NC(=O)C1=C(O)c2ccccc2S(=O)(=O)N1CC1CCCCC1 [Compound 13b, 2-(Cyclohexylmethyl)-4-hydroxy-2H-benzo[e][1,2]thiazine-3-carboxamide 1,1-dioxide] | 4
NC(=O)C1=C(O)c2ccccc2S(=O)(=O)N1Cc1ccccc1F [Compound 13j, 2-(2-Fluorobenzyl)-4-hydroxy-2H-benzo[e][1,2]thiazine-3-carboxamide 1,1-dioxide] | 19.4
NC(=O)C1=C(O)c2ccccc2S(=O)(=O)N1Cc1ccccc1 [Compound 13c, 2-Benzyl-4-hydroxy-2H-benzo[e][1,2]thiazine-3-carboxamide 1,1-dioxide] | 13.3

Several values for one entry are separate records, joined by “and”; a condition that tells them apart may be missing. Equal values may be shown once.
